Key:
[1] = tested on: human monocyte THP-1 cell line; settings: for SI THP-1 / M. bovis BCG / SI THP-1 / Mtb H37Rv: GIC for the cell line divided by MIC for the bacteria
[2] = tested on: murine macrophage RAW 264.7 cell line; settings: for SI RAW 264.7 / M. bovis BCG / SI RAW 264.7 / Mtb H37Rv: GIC for the cell line divided by MIC for the bacteria

Structure (SMILES)	SI THP-1 / MDR-TB [1]	SI THP-1 / M. bovis BCG [1]	SI THP-1 / Mtb H37Rv [1]	SI RAW 264.7 / MDR-TB [2]	SI RAW 264.7 / M. bovis BCG [2]	SI RAW 264.7 / Mtb H37Rv [2]
O=C(/C=C/c1ccc([N+](=O)[O-])o1)c1ccc(N2CCOCC2)cc1 [Compound 1]	64	1042	256	128	2083	512
O=C(/C=C/c1ccc([N+](=O)[O-])o1)c1ccc(N2CCCCC2)cc1 [Compound 2]	32	8333	2016	64		4032
CCN(CC)c1ccc(C(=O)/C=C/c2ccc([N+](=O)[O-])o2)cc1 [Compound 3]	32	520	32	64	1042	64

Reference: paper PMC7400135, “3-(5-Nitrofuran-2-yl)prop-2-en-1-one Derivatives, with Potent Antituberculosis Activity, Inhibit A Novel Therapeutic Target, Arylamine N-acetyltransferase, in Mycobacteria” (Antibiotics, 2020)
